Laboratory results: PubChem BioAssay AID1259414 (Drosophila RNAi Screening Center, 2018)
Purpose: 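Fly genes that alter Wolbachia amount inside host cells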 (primary screen). Cells: Drosophila JW18 cells infected with Wolbachia. Reagents: long dsRNA against Drosophila genes, 0.25 µg dsRNA per well of a 384-well plate. Time to read-out: 5 days. Conditions: cells persistently infected with Wolbachia before knock-down; no added drug. Measurement: 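Automated imaging of bacterial rRNA staining divided by host cell count, reported as plate-normalised robust z-score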. Reading the numbers: Wolbachia per cell robust z: higher = more Wolbachia per host cell than the plate typical. Call rule: 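Active if absolute robust z reaches 1.5 in two or more of three replicates, leaving out multi- or no-target dsRNAs, genes unexpressed in JW18 and A1 wells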.
In all, the deposit lists about 24,000 reagents; below is a random part of those with a known target gene and a result. In the full data, about 1,210 (5%) were called active. 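Inactive calls also include excluded dsRNAs with several or no targets, genes unexpressed in JW18, and well A1, regardless of score.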 A number with no mark means an inactive call.

How did the screen score TTLL3A (Tubulin tyrosine ligase-like 3A) [DRSC02143]?
Wolbachia per cell robust z, rep 1: 1.12; Wolbachia per cell robust z, rep 2: 0.178; Wolbachia per cell robust z, rep 3: 1.25

Which result is listed for TTLL3A (Tubulin tyrosine ligase-like 3A) [DRSC28462]?
Wolbachia per cell robust z, rep 1: -0.634; Wolbachia per cell robust z, rep 2: -0.213; Wolbachia per cell robust z, rep 3: -1.19

For CG14805 [DRSC18554], what does the deposit list?
Wolbachia per cell robust z, rep 1: 0.626 (active); Wolbachia per cell robust z, rep 2: -4.86; Wolbachia per cell robust z, rep 3: -2.14

How did the screen score Mdh2 (Malate dehydrogenase 2) [DRSC16361]?
Wolbachia per cell robust z, rep 1: -0.411; Wolbachia per cell robust z, rep 2: -0.54; Wolbachia per cell robust z, rep 3: -1.92

For Usp5 (Ubiquitin specific protease 5) [DRSC08244], how do the results read?
Wolbachia per cell robust z, rep 1: -0.39; Wolbachia per cell robust z, rep 2: 1.11; Wolbachia per cell robust z, rep 3: -1.86

What is on record for Usp5 (Ubiquitin specific protease 5) [DRSC28531]?
Wolbachia per cell robust z, rep 1: -0.246; Wolbachia per cell robust z, rep 2: -1.02; Wolbachia per cell robust z, rep 3: 0.394

What is on record for Sirup (Starvation-upregulated protein) [DRSC03031]?
Wolbachia per cell robust z, rep 1: 0.467; Wolbachia per cell robust z, rep 2: 0.223; Wolbachia per cell robust z, rep 3: -0.813

What did the screen give for Sirup (Starvation-upregulated protein) [DRSC29298]?
Wolbachia per cell robust z, rep 1: -1.56; Wolbachia per cell robust z, rep 2: 0.641; Wolbachia per cell robust z, rep 3: -7.41

With Sirup (Starvation-upregulated protein) [DRSC39012], how do the results read?
Wolbachia per cell robust z, rep 1: 0.801; Wolbachia per cell robust z, rep 2: 1.85; Wolbachia per cell robust z, rep 3: 1.93

What is on record for Cpr65Ay (Cuticular protein 65Ay) [DRSC38850]?
Wolbachia per cell robust z, rep 1: -1.18; Wolbachia per cell robust z, rep 2: 1.04; Wolbachia per cell robust z, rep 3: -0.229

What is on record for Eglp1 (Entomoglyceroporin 1) [DRSC04502]?
Wolbachia per cell robust z, rep 1: -6.1; Wolbachia per cell robust z, rep 2: 1.01; Wolbachia per cell robust z, rep 3: -4.52

How did the screen score CG1774 [DRSC15258]?
Wolbachia per cell robust z, rep 1: 0.356 (active); Wolbachia per cell robust z, rep 2: -9.79; Wolbachia per cell robust z, rep 3: -8.5

For klu (klumpfuss) [DRSC11357], what was measured?
Wolbachia per cell robust z, rep 1: 0.661; Wolbachia per cell robust z, rep 2: 0.709; Wolbachia per cell robust z, rep 3: -1.43

Which result is listed for klu (klumpfuss) [DRSC26367]?
Wolbachia per cell robust z, rep 1: -1.58; Wolbachia per cell robust z, rep 2: 0.00257; Wolbachia per cell robust z, rep 3: -7.32

How did the screen score CG13386 [DRSC02260]?
Wolbachia per cell robust z, rep 1: -0.223; Wolbachia per cell robust z, rep 2: 1.45; Wolbachia per cell robust z, rep 3: -0.46

With CG13386 [DRSC28740], what does the deposit list?
Wolbachia per cell robust z, rep 1: 0.00652; Wolbachia per cell robust z, rep 2: 0.721; Wolbachia per cell robust z, rep 3: -0.266

For CrebB (Cyclic-AMP response element binding protein B) [DRSC20232], how do the results read?
Wolbachia per cell robust z, rep 1: 0.871; Wolbachia per cell robust z, rep 2: 1.01; Wolbachia per cell robust z, rep 3: 1.24

What is on record for CrebB (Cyclic-AMP response element binding protein B) [DRSC23558]?
Wolbachia per cell robust z, rep 1: 0.555; Wolbachia per cell robust z, rep 2: -6.83; Wolbachia per cell robust z, rep 3: -1.14

For CG32537 [DRSC20073], what was measured?
Wolbachia per cell robust z, rep 1: 0.397; Wolbachia per cell robust z, rep 2: 0.0571; Wolbachia per cell robust z, rep 3: 1.39

For CG32537 [DRSC23589], how do the results read?
Wolbachia per cell robust z, rep 1: -0.667; Wolbachia per cell robust z, rep 2: 1.42; Wolbachia per cell robust z, rep 3: -0.29

How did the screen score Leash [DRSC15617]?
Wolbachia per cell robust z, rep 1: 1.53; Wolbachia per cell robust z, rep 2: 0.944; Wolbachia per cell robust z, rep 3: 0.224

What is on record for Leash [DRSC28712]?
Wolbachia per cell robust z, rep 1: 0.891; Wolbachia per cell robust z, rep 2: 0.747; Wolbachia per cell robust z, rep 3: -0.351

How did the screen score Sqor (Sulfide quinone oxidoreductase) [DRSC08453]?
Wolbachia per cell robust z, rep 1: -0.461; Wolbachia per cell robust z, rep 2: -0.278; Wolbachia per cell robust z, rep 3: 0.686

What did the screen give for Sqor (Sulfide quinone oxidoreductase) [DRSC27056]?
Wolbachia per cell robust z, rep 1: 1.19; Wolbachia per cell robust z, rep 2: 1.12; Wolbachia per cell robust z, rep 3: 3.02

For Ent2 (Equilibrative nucleoside transporter 2) [DRSC02124], how do the results read?
Wolbachia per cell robust z, rep 1: -0.128; Wolbachia per cell robust z, rep 2: -1.19; Wolbachia per cell robust z, rep 3: 0.73

With Ent2 (Equilibrative nucleoside transporter 2) [DRSC28879], what does the deposit list?
Wolbachia per cell robust z, rep 1: -1.5; Wolbachia per cell robust z, rep 2: 0.5; Wolbachia per cell robust z, rep 3: 0.955

Which result is listed for CG14826 [DRSC10197]?
Wolbachia per cell robust z, rep 1: -4.77; Wolbachia per cell robust z, rep 2: 0.0526; Wolbachia per cell robust z, rep 3: -6.42

With Hcs (Holocarboxylase synthetase) [DRSC12070], what was measured?
Wolbachia per cell robust z, rep 1: -3; Wolbachia per cell robust z, rep 2: -0.864; Wolbachia per cell robust z, rep 3: -1.23

With Hcs (Holocarboxylase synthetase) [DRSC12256], how do the results read?
Wolbachia per cell robust z, rep 1: -4.98; Wolbachia per cell robust z, rep 2: 0.979; Wolbachia per cell robust z, rep 3: 0.807

What is on record for Gr93d (Gustatory receptor 93d) [DRSC21941]?
Wolbachia per cell robust z, rep 1: -0.888; Wolbachia per cell robust z, rep 2: -0.885; Wolbachia per cell robust z, rep 3: 0.176

Part of the list above, set out differently.
{"Target gene":"Sirup (Starvation-upregulated protein)","DRSC id":"DRSC39012","Wolbachia per cell robust z, rep 1":0.801,"Wolbachia per cell robust z, rep 2":1.85,"Wolbachia per cell robust z, rep 3":1.93}
{"Target gene":"Cpr65Ay (Cuticular protein 65Ay)","DRSC id":"DRSC38850","Wolbachia per cell robust z, rep 1":-1.18,"Wolbachia per cell robust z, rep 2":1.04,"Wolbachia per cell robust z, rep 3":-0.229}
{"Target gene":"Eglp1 (Entomoglyceroporin 1)","DRSC id":"DRSC04502","Wolbachia per cell robust z, rep 1":-6.1,"Wolbachia per cell robust z, rep 2":1.01,"Wolbachia per cell robust z, rep 3":-4.52}
